For this series, the target named is Fur (UniProt P0A9A9). As to the kind of experiment: EMSA. Particulars: 100 uM Mn2+, 1 mM Mg2+; EMSA: 10 mM Tris-borate pH 7.5, 40 mM KCl, 7.5% glycerol, 1 mM MgCl2, 100 uM MnCl2, 4 mM DTT, 100 ug/mL BSA, 1 ug/mL sonicated salmon sperm DNA, 5 ng DNA in 25 uL, 37 C; recombinant protein; residues 1-148; probe letters rebuilt from the primers and the genome.

Sequences of proteins named here, by UniProt entry; tags and fusion partners are left off. A change or cut given only in a name is not applied to a line headed by its entry.
UniProt P0A9A9: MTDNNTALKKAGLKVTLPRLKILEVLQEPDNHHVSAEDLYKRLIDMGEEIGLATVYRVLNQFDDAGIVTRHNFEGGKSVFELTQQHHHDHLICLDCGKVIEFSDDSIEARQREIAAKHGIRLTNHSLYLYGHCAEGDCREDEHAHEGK

The exact form of at least one protein or probe is not confirmed.

The source of these data is publication PMC5874247.

Turning to “TGCAAATTTGTGAAGCTTATCCTGTTATTATTTTAAGTTTCATGCCAAATTCTCTCACCAGATAATGCCGCCCTCTTCCGAAAAATAATCAAGAGGCCAAACAATATCTAAAATGATACAACTGTATCTATTCCCCTGAAAAATACATTATTCATTTGTATATTTTCCTCATCATTGCTTTTTATTTAAATCATCCGATAATCCCCTGAATATAATTATGTCAATAACCATCAGAAAAAGTGGATGATGAGGAAAAGGAT (double strand) [T6SS1 promoter fragment]”, the binding result is reported as “binds”.
